Test results taken from US20030134799A1.

Biological target: NMDA receptor of well-washed rat forebrain membranes (rat) (UniProt Q9R1M7)
Assay: cell-based or functional assay

Row | Substance | % inhibition of the maximum stimulation by spermine at 10 nM peptide [%] | % reduction of Gly-stimulated [3H]MK-801 binding at 30 nM peptide [%] | % inhibition of Gly enhanced [3H]MK-801 binding at 10 µM Con-G [%]
1 | Ala7-Con-G (peptide) | 50 | 20 | 
2 | Conantokin-G (peptide) |  |  | 15
